Read-outs that look alike come from different tables or passages of the source.
What was measured:
[1] = target: BA.2.75.2 CoV S glycoprotein (recombinant); test: hACE2 receptor inhibition ELISA on coated rS; competitor hACE2-His
[2] = target: BQ.1 CoV S glycoprotein (recombinant); test: as above
[3] = target: BA.2.75.2 CoV S glycoprotein (recombinant); test: ELISA on coated rS
[4] = target: BA.2.75.2 CoV S glycoprotein (recombinant); test: hACE2 receptor inhibition ELISA on coated rS; competitor hACE2-His; remark: listed apart in the source
[5] = target: BA.2.75.2 CoV S glycoprotein (recombinant); test: ELISA on coated rS; remark: listed apart in the source
[6] = target: Kappa B.1.617.1 CoV S glycoprotein (recombinant); test: hACE2 receptor inhibition ELISA on coated rS; competitor hACE2-His

| Binder | IC50 [1] [µg/mL] | IC50 [2] [µg/mL] | EC50 [3] [µg/mL] | IC50 [4] [µg/mL] | EC50 [5] [µg/mL] | IC50 [6] [µg/mL] |
| --- | --- | --- | --- | --- | --- | --- |
| 322.3 (antibody, V domains shown) VH: RVQLQQSGPELVKPGASVTISCKASGYIFTSDYIHWVKQRPGQGPEWIGWIYPGNINTKYNEKFKGKATLTADKSSSTAYMQLSSLTSEDSAVYFCARDDGNLYYYAMDYWGQGTSVTVSS VL: NIVLTQSPASLAVSLGQRATISCRASESVDSYGSSFMHWYQQKPGQPPKLLIYLASNLESGVPARFSGSGSRTDFTLTIDPVEADDAATYYCQQNNEDPRTFGGGTKLEIK | 0.184 | 0.656 | 0.024 | – | – | – |
| 199.9 (antibody, V domains shown) VH: LVQLQQPGAELVKPGASVKLSCKASGYTFTSYFMYWVRQRPGQGLEWIGEINPSNGGNDFNEKFKSKATLTVDKSSSTAYMQLSSLTSEDSAVYYCTRSGDYGYDGFAYWGQGTLVTVSA VL: NIVLTQSPASLAVSLGQRATISCRASESVDTYGNSFMHWYQQKPGQPPKLLIYLASNLESGVPARFSGSGSRTDFTLTIDPVEADDAATYYCQQNNEDPLTFGAGTKLELK | – | – | – | 0.648 | 0.001 | – |
| 425.6 (antibody, V domains shown) VH: VQLKQSGPSLVQPSQSLSITCTVSGFSLTSYGIHWVRQSPGKGLEWLGVIWRGGSTDYNAAFMSRLTITKDNSKSQVFFKMNSLQADDTAIYYCATHTEGDDVDYWGQGTSVTVSS VL: QIVLTQSPAIMSVSPGEKVTMTCSASSTMSFMYWYQQKPGSSPRLLIYDTSNLASGVPVRFSGSGSGTSYSLTISRVEAEDAATYYCQQWNTYPLTFGAGTKLELKR | > 3 | > 3 | – | – | – | 0.043 |
| 35.13 (antibody, V domains shown) VH: QVQLQQSGAELGKPGASVKLSCRASGYTFTRYYIYWVKQRPGQGLEWIGEINPSNGDTHFNEKFKTKATLTVDKSSSSAHIHLTSLTSEDSAVYYCSIHAYSFDFWGQGTTLTVSS VL: EIQMTQSPSSMSASLGDRITITCQATQDIVKNLNWYQQKPGKPPSFLIYHATELAKGVPSRFSGSGSGSDYSLTISNLESEDFADYYCLQFYDFPFTFGAGTKLELKR | > 3 | > 3 | – | – | – | – |
| 239.12 (antibody, V domains shown) VH: EVKLEESGPVLVKPSQSLSLTCTVTGYSITSDYAWNWIRQFPGNKLEWMGYISNSAGTSYNPSLKSRISITRDTSKNQFFLQLNSVTTEDTATYYCASGGWSSYYAMDYWGQGTSVTVSS VL: DIQMTQSPASLSASVGETVTITCGASENIYGALNWYQRKQGKSPQLLIYGATNLADGMSSRFSGSGSGRQYSLKISSLHPDDVATYYCQNVLSTPYTFGGGTKLEIKR | > 3 | > 3 | – | – | – | – |

— patent publication US20250066456A1 (NOVAVAX, published 2025)
